{"sequences": {"note": "Protein sequences, listed by entry. Tags and fused reporters are not part of them. Residues count along the entry.", "UniProt P03313, 1541-1723 limits assumed": "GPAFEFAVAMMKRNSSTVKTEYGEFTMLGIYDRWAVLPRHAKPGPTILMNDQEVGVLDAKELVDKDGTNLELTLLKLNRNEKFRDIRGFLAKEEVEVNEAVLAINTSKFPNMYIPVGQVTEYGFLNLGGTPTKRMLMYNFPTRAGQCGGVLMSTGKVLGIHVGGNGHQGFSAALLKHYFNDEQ", "UniProt P04584, 514-612 limits assumed": "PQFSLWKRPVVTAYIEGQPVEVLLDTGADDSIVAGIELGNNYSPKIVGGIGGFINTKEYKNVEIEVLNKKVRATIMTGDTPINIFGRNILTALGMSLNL", "UniProt Q83883, 1101-1281 limits assumed": "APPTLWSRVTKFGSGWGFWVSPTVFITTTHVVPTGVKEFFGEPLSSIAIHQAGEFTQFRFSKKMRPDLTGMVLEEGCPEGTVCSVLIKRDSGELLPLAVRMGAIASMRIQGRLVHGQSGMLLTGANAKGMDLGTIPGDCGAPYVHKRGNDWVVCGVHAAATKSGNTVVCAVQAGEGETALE"}, "source": "paper PMC11790949", "about": "“A multiplex method for rapidly identifying viral protease inhibitors” (Molecular Systems Biology, 2025)", "key": {"CV-B3-3C": {"target": "CV-B3-3C (Coxsackievirus B3, UniProt P03313)", "assay_type": "cell-based"}, "HIV-2-PR": {"target": "HIV-2-PR (Human immunodeficiency virus type 2 subtype A, UniProt P04584)", "assay": "Yeast dose-response liquid growth assay (individual model)", "assay_type": "cell-based", "settings": "HIV-2-PR model; OD595 relative to lowest drug concentration"}, "LGTV-NS2B-GS-NS3": {"system": "LGTV-NS2B-GS-NS3", "assay_type": "cell-based, Langat virus"}, "SV-A-3C": {"system": "SV-A-3C", "assay": "Yeast dose-response liquid growth assay (individual model)", "assay_type": "cell-based, Salivirus", "settings": "SV-A-3C model; for Max relative growth: OD595 relative to lowest drug concentration"}, "LV-3CL": {"system": "LV-3CL", "assay": "Yeast dose-response liquid growth assay (individual model)", "assay_type": "cell-based, Lordsdale virus", "settings": "LV-3CL model"}, "EMCV-3C": {"target": "T1, EMCV-3C (Encephalomyocarditis virus, UniProt P03304)", "T1 sequence (P03304 1626-1830 limits assumed)": "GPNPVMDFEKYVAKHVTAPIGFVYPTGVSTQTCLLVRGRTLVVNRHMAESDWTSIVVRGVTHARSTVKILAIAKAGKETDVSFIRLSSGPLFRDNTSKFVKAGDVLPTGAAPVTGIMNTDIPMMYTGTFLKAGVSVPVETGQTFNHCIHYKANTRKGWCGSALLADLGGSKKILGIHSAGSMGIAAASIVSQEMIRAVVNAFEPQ", "assay": "Yeast dose-response liquid growth assay (individual model)", "assay_type": "cell-based", "settings": "EMCV-3C model; for Max relative growth: OD595 relative to lowest drug concentration"}, "NWV-3CL": {"target": "NWV-3CL (Norovirus, UniProt Q83883)", "assay": "Yeast dose-response liquid growth assay (individual model)", "assay_type": "cell-based, Norwalk virus", "settings": "NWV-3CL model"}, "HCV-NS3-GS-NS4A": {"system": "HCV-NS3-GS-NS4A", "assay": "Yeast dose-response liquid growth assay (individual model)", "assay_type": "cell-based"}, "DENV-NS3-GS-NS2B": {"system": "DENV-NS3-GS-NS2B", "assay": "Yeast dose-response liquid growth assay (individual model)", "assay_type": "cell-based, Dengue virus"}, "[1]": {"settings": "OD595 relative to lowest drug concentration"}}, "data": [{"smiles": "CCc1cc(=O)oc2cc(OC(=O)c3ccco3)ccc12", "note": "[CB6728297]", "values": [{"measurement": "Max relative growth", "setting": "CV-B3-3C", "result": 6.507}]}, {"smiles": "Nc1ccc(Br)cc1Br", "note": "[NSC88324]", "values": [{"measurement": "Max relative growth", "setting": "HIV-2-PR", "result": 1.769}]}, {"smiles": "N#Cc1c(N)nc(N)nc1Nc1ccc(Br)cc1", "note": "[NSC71866]", "values": [{"measurement": "Inhibitor / Validation (true or false inhibitor in individual yeast model)", "setting": "LGTV-NS2B-GS-NS3", "result": "FALSE"}, {"measurement": "Max relative growth", "setting": "LGTV-NS2B-GS-NS3", "result": 0.8872}, {"measurement": "Inhibitor / Validation (true or false inhibitor in individual yeast model)", "setting": "SV-A-3C", "result": "FALSE"}, {"measurement": "Max relative growth", "setting": "SV-A-3C", "result": 0.4724}]}, {"smiles": "Cc1ccc(Nc2nc(Cl)nc3ncn(C)c23)c(C)c1", "note": "[NSC19141]", "values": [{"measurement": "Inhibitor / Validation (true or false inhibitor in individual yeast model)", "setting": "LV-3CL", "result": "FALSE"}, {"measurement": "Max relative growth", "setting": "LV-3CL; [1]", "result": 0.7294}]}, {"smiles": "N#C/C(=C\\c1cccnc1)c1ccc(Br)cc1", "note": "[NSC151262]", "values": [{"measurement": "Max relative growth", "setting": "EMCV-3C", "result": 2.359}]}, {"smiles": "Clc1ccc2nc3ccccc3cc2c1", "note": "[NSC179818]", "values": [{"measurement": "Inhibitor / Validation (true or false inhibitor in individual yeast model)", "setting": "EMCV-3C", "result": "FALSE"}, {"measurement": "Max relative growth", "setting": "EMCV-3C", "result": 1.075}]}, {"smiles": "CCOC(=O)c1[nH]c(C(=O)O)c(OC(=O)CC)c1C", "note": "[NSC13434]", "values": [{"measurement": "Inhibitor / Validation (true or false inhibitor in individual yeast model)", "setting": "NWV-3CL", "result": "FALSE"}, {"measurement": "Max relative growth", "setting": "NWV-3CL; [1]", "result": 0.2328}]}, {"smiles": "Cc1cc2c(cc1C)N(C(=O)CCl)CC(=O)N2", "note": "[NSC138389]", "values": [{"measurement": "Inhibitor / Validation (true or false inhibitor in individual yeast model)", "setting": "LGTV-NS2B-GS-NS3", "result": "FALSE"}, {"measurement": "Max relative growth", "setting": "LGTV-NS2B-GS-NS3", "result": 0.4976}]}, {"smiles": "COc1cc(O)c(C(=O)/C=C/c2ccccc2)c(OC)c1", "note": "[NSC51351]", "values": [{"measurement": "Inhibitor / Validation (true or false inhibitor in individual yeast model)", "setting": "SV-A-3C", "result": "FALSE"}, {"measurement": "Max relative growth", "setting": "SV-A-3C", "result": 0.2581}]}, {"smiles": "O=C(O)/C=C/C(=O)N1Cc2cc3ccccc3nc2C1", "note": "[NSC140899]", "values": [{"measurement": "Inhibitor / Validation (true or false inhibitor in individual yeast model)", "setting": "HCV-NS3-GS-NS4A", "result": "FALSE"}, {"measurement": "Max relative growth", "setting": "HCV-NS3-GS-NS4A; [1]", "result": 0.5051}]}, {"smiles": "COc1cc2c(=O)n3c4c(cccc4c2cc1OC)CC3", "note": "[NSC276736]", "values": [{"measurement": "Inhibitor / Validation (true or false inhibitor in individual yeast model)", "setting": "DENV-NS3-GS-NS2B", "result": "FALSE"}, {"measurement": "Max relative growth", "setting": "DENV-NS3-GS-NS2B; [1]", "result": 1.172}]}]}
